Results of unrelated studies side by side (data: NIAID ChemDB).

Common to all: tests in culture; agent: Mycobacterium tuberculosis

Lines come from different laboratories, so protocols vary.

compound	dose	measure	strain or isolate	method	conditions	cell line	result
CCC(S)CC(=O)OC=O		MIC	H37Rv				5 µg/mL
Cc1ccnc2c1N(C(=O)CN1CCN(c3cc4c(cc3F)c(=O)c(C(=O)O)cn4C3CC3)CC1)C(=O)c1cccnc1N2C1CC1		EC50	H37Rv (ATCC 27294)	BACTEC			100 µg/mL
O=C(N[C@@H](Cc1ccccc1)c1cnc(-c2ccccc2)[nH]1)OCc1ccccc1		MIC	My 331/88		14 d		500 µM
N#Cc1c(Nc2ccccc2)[n+]([O-])c2ccc(Cl)cc2[n+]1[O-]		MIC	H37Rv				<12.5 µg/mL
Cc1cc(-n2cccn2)ccc1S(=O)(=O)NC1CCN(Cc2ccncc2)CC1		MIC					0.39 µM
Cc1c(C(N)=O)sc(NC(=O)c2c(F)c(F)c(F)c(F)c2F)c1C(=O)O		MIC					78.4 µM
COc1c(N2CC3CCCNC3C2)c(F)cc2c(=O)c(C(=O)O)cn(C3CC3)c12		MIC	H37Rv	fluorescence			0.06 µg/mL
C=C(C)[C@@H]1CCC(C)(O)[C@H](Br)CC[C@@]2(C)C(=C(C)CC[C@@H]2Br)Cc2cc(ccc2O)C(=O)O1		MIC					>100 µM
CO[C@H]1[C@@H](O)[C@H](n2ccc(=O)[nH]c2=O)O[C@@H]1[C@@H](O[C@H]1OC(C(=O)N[C@H]2CCC[C@@H](C)NC2=O)=C[C@H](O)[C@@H]1O)C(N)=O		MIC	H37Rv	broth dilution			8 µg/mL
COC(=O)c1c(NC(=O)c2ccccc2F)sc2c1CCCCC2		MIC					20.2 µM
O=C1CN(Cc2ccc(Cl)cc2)CC(=O)N2CCCN12		MIC bound	H37Rv	BACTEC			>12.5 µg/mL
CC[C@H]1OC(=O)[C@H](C)[C@@H](O[C@H]2C[C@@](C)(OC)[C@@H](O)[C@H](C)O2)[C@H](C)[C@@H](O[C@@H]2O[C@H](C)C[C@H](N(C)C)[C@H]2O)[C@](C)(OC)C[C@@H](C)C(=O)[C@H](C)[C@@H](O)[C@]1(C)O		MIC	BCG				0.25 µg/mL
CC(C)NC(=O)c1cc(NC(=O)c2ccc(C(=O)Nc3cc(C(=O)NC(C)C)cc(C4=NCCN4)c3)cc2)cc(C2=NCCN2)c1		MIC bound	H37Rv	resazurin			>6.25 µg/mL
CSc1ncnc2c1cnn2Cc1cnnn1COC[C@H](O)CO		EC50	H37Rv	BACTEC			>12.5 µg/mL
CC1=NN(c2cc(S(=O)(=O)O)ccc2Cl)C(=O)C1N=Nc1ccccc1	12.5 µg/mL	inhibition	H37Rv	BACTEC			-5%
CCOC(=O)c1c(NC(=O)c2c(F)c(F)c(F)c(F)c2F)sc2c1CCCCC2		MIC					1.9 µM
CCOC(=O)c1c(-c2ccc(OC)cc2)oc2ccc(OCCCCCN3C(=O)/C(=N/OC)c4ccccc43)cc12		MIC	H37Rv				<0.049 µg/mL
COCCN(C1CCN(CC2C(c3ccc(C)cc3)=Nc3c(C)cccc32)C1)S(C)(=O)=O		MIC					25 µM
O=C1Oc2ccccc2C(=O)Oc2ccccc2C(=O)Oc2ccccc2C(=O)Oc2ccccc21		MIC bound	H37Rv	BACTEC			>12.5 µg/mL
C[C@@H](NC(=O)OCc1ccccc1)c1cnc(-c2ccc([N+](=O)[O-])cc2)[nH]1		MIC	My 331/88		14 d		>125 µM
O=S(=O)(C[C@@H]1N[C@H](CO)[C@@H](O)[C@@H]1O)c1ccccc1		EC50	H37Ra	BACTEC			>12.5 µg/mL
OC[C@H](O)COCn1cc(Cn2ncc3c(NCc4ccccc4)ncnc32)nn1		EC50	H37Rv	BACTEC			>12.5 µg/mL
C[C@H](O)[C@H]1C(=O)N2C(C(=O)O)=C(S[C@@H]3CN[C@H](C(=O)N(C)C)C3)[C@H](C)[C@H]12		MIC	H37Rv	fluorescence			2.5 µg/mL
CO[C@H]1/C=C/O[C@@]2(C)Oc3c(C)c(O)c4c(O)c(c(/C=N/N5CCN(C)CC5)c(O)c4c3C2=O)NC(=O)/C(C)=C\C=C\[C@H](C)[C@H](O)[C@@H](C)[C@@H](O)[C@@H](C)[C@H](OC(C)=O)[C@@H]1C		MIC	H37Rv	resazurin			0.1 µg/mL
CC1COc2c(N3CCN(C)CC3)c(F)cc3c(=O)c(C(=O)O)cn1c23		MIC	Erdman				1.25 µg/mL
CCN(CC)c1ccc(N=C2C=CC(=O)C(NC(C)=O)=C2)c(C)c1		MIC	H37Rv	BACTEC			3.13 µg/mL
CC1=NN(c2ccc3c(c2)Nc2ccccc2S3)C2NC(=S)NC(c3ccccc3)C12		MIC	H37Rv	BACTEC / broth dilution / radiometric			>6.25 µg/mL
CO[C@H]1/C=C/O[C@@]2(C)Oc3c(C)c(O)c4c(O)c(c(/C=N/N=C/N5CCCCC5)c(O)c4c3C2=O)NC(=O)/C(C)=C\C=C\[C@H](C)[C@H](O)[C@@H](C)[C@@H](O)[C@@H](C)[C@H](OC(C)=O)[C@@H]1C		MIC	10 strains (RIF-resistant)				25 µg/mL
N#Cc1ccc(SC[C@@H]2N[C@H](CO)[C@@H](O)[C@@H]2O)cc1		EC50	H37Ra	BACTEC			>12.5 µg/mL
CCOC(=O)[C@@H](N)CSCC		MIC	H37Rv				>100 µg/mL
O=C(OCc1ccccc1)N1CCC[C@H]1c1cnc(-c2ccccc2)[nH]1		MIC	My 331/88		21 d		62.5 µM
CCN(CC)C(=S)[S][Bi]([S]C(=S)N(CC)CC)[S]C(=S)N(CC)CC		MIC	H37Rv			VERO	1.6 µg/mL
C[C@H]1COc2c(N3CCN(C)CC3)c(F)cc3c(=O)c(C(=O)O)cn1c23		MIC	H37Rv	resazurin			0.5 µg/mL
CC1(C)Oc2cc(O)c(C(=O)/C=C/c3ccccc3)c(O)c2CC1O		MIC	H37Rv				50 µg/mL
CN[C@@H]1[C@H](O[C@H]2[C@H](O[C@H]3[C@H](O)[C@@H](O)[C@H](N=C(N)N)[C@@H](O)[C@@H]3N=C(N)N)O[C@@H](C)[C@]2(O)C=O)O[C@@H](CO)[C@H](O)[C@H]1O		MBC	BCG				0.25 µg/mL
CCCc1cc(C(N)=S)ccn1		MIC	H37Rv	resazurin			2 µg/mL
CC1=NN(c2ccc3c(c2)Nc2ccccc2S3)C2NC(=S)NC(c3ccccc3Cl)C12		MIC	H37Rv	BACTEC / broth dilution / radiometric			<6.25 µg/mL
CO[C@H]1/C=C/O[C@@]2(C)Oc3c(C)c(O)c4c(O)c(c5c(c4c3C2=O)NC2(CCN(CC(C)C)CC2)N=5)=NC(=O)/C(C)=C\C=C\[C@H](C)[C@H](O)[C@@H](C)[C@@H](O)[C@@H](C)[C@H](OC(C)=O)[C@@H]1C		MIC	CSU28				≤0.125 µg/mL
Nc1ncnc2c1cnn2COC[C@@H](O)CO	12.5 µg/mL	inhibition	H37Rv	BACTEC			0%
NCCC[C@H](N)CC(=O)N[C@H]1CNC(=O)[C@H]([C@H]2C[C@H](O)NC(N)=N2)NC(=O)/C(=C/NC(N)=O)NC(=O)[C@H](CO)NC(=O)[C@H](CO)NC1=O		MBC	BCG				2 µg/mL
Cc1cc(C)c2c(SCc3ccc(Cl)cc3Cl)nc(N)nc2n1	12.5 µg/mL	inhibition	H37Rv	BACTEC			31%
NCC[C@H](O)C(=O)N[C@@H]1C[C@H](N)[C@@H](O[C@H]2O[C@H](CN)[C@@H](O)[C@H](O)[C@H]2O)[C@H](O)[C@H]1O[C@H]1O[C@H](CO)[C@@H](O)[C@H](N)[C@H]1O		MIC					0.5 µg/mL
CC1CN(c2c(F)cc3c(=O)c(C(=O)O)cn(C4CC4)c3c2F)CCN1		MIC	Strain 24				0.25 µg/mL
CC1=NN(c2ccc3c(c2)Nc2ccccc2S3)C2NC(=S)NC(c3ccc([N+](=O)[O-])cc3)C12		MIC	H37Rv	BACTEC / broth dilution / radiometric			>6.25 µg/mL
CCSC[C@H](N)C(=O)O		MIC	H37Rv				>100 µg/mL
Cc1c(C(N)=O)c(=O)[nH]c2ccc([N+](=O)[O-])cc12		MIC bound	H37Rv	BACTEC			>12.5 µg/mL
CC(=O)N[C@@H](CS)C(=O)O		MIC	H37Rv				>100 µg/mL
c1cc2c(cc1[C@H]1OC[C@H]3[C@@H]1CO[C@@H]3c1ccc3c(c1)OCO3)OCO2	12.5 µg/mL	inhibition	H37Rv	BACTEC			0%
CCSC(=O)c1ccccc1		MIC	H37Rv				>100 µg/mL
Cc1coc(NS(=O)(=O)c2ccc(N=Nc3ccc(O)c4ncccc34)cc2)c1C	12.5 µg/mL	inhibition	H37Rv	BACTEC			-3%
CSc1ncnc2c1cnn2Cc1cn(COC[C@@H](O)CO)nn1	12.5 µg/mL	inhibition	H37Rv	BACTEC			0%
CC1=C2Cc3cc(ccc3O)C(=O)O[C@H]3CC[C@@](C)(OC3(C)C)[C@H](Br)CC[C@]2(C)[C@@H](Br)CC1		MIC					22 µM
NNC(=O)c1ccncc1		MBC	BCG				0.13 µg/mL
CNc1ncnc2c1cnn2COC[C@@H](O)CO		EC50	H37Rv	BACTEC			>12.5 µg/mL
Cc1ccc(Nc2nc3c(s2)C(=O)c2ccccc2C3=O)c(C)c1		MIC bound	H37Rv	BACTEC			≤12.5 µg/mL
COCC1(C)C2CC2[C@@]2(C)CC[C@@H](Br)[C@@](C)(O)CC[C@@H](C(C)(C)Br)OC(=O)c3ccc(O)c(c3)CC12		MIC90	H37Rv (ATCC 27294)	resazurin			94 µM
C=C1C(=O)[C@@]23C(CC[C@@H]1[C@H]2O)C1(COC(C)=O)C(O)CCC(C)(C)C1C[C@H]3O		MIC bound	H37Rv	BACTEC			>12.5 µg/mL
Nc1ccc(C(=O)O)c(O)c1		MIC	H37Rv	resazurin			0.125 µg/mL
O=S(=O)(NC1CCN(Cc2ccncc2)CC1)c1ccc(-n2cccn2)cn1		MIC					1.5 µM
CC(C)C1=CC2=CCC3C(C)(COC(=O)COc4ccccc4)CCCC3(C)C2CC1	12.5 µg/mL	inhibition	H37Rv	BACTEC			87%
C=C(C)[C@@H]1CCC(C)(O)[C@H](Br)CC[C@@]2(C)[C@H](Cc3cc(ccc3O)C(=O)O1)C(C)=CC[C@@H]2Br		MIC					>50 µM
CC1(C)S[C@@H]2[C@H](NC(=O)[C@H](N)c3ccccc3)C(=O)N2[C@H]1C(=O)O		MIC	H37Rv	fluorescence			>80 µg/mL
Cn1c2ccccc2c(=O)c2c(O)cc3c(c21)C=CC(C)(C)O3		MIC bound	H37Rv	BACTEC			>12.5 µg/mL
OC[C@H]1O[C@H](CSc2ccccc2)[C@@H](O)[C@@H]1O		MIC	H37Ra				>128 µg/mL
CC1=NN(c2ccc3c(c2)Nc2ccccc2S3)C2NC(=S)NC(c3ccccc3[N+](=O)[O-])C12		MIC	H37Rv	BACTEC / broth dilution / radiometric			<6.25 µg/mL
FC(F)(F)c1cc(-c2ccc(C3Nc4ccccc4-n4cccc43)o2)cc(C(F)(F)F)c1		MIC bound	H37Rv	BACTEC			>12.5 µg/mL
Cc1nc(N)c2ncn([C@@H]3O[C@H](CO)[C@@H](O)[C@H]3O)c2n1		MIC	ATCC 35837 (ethambutol-resistant)				<1.56 µg/mL
C[C@@H](O)[C@@]1(C)C(=O)N2C(C(=O)O)=C(SCCN=CN)C[C@@]21C		MIC	H37Rv	fluorescence			2.5 µg/mL
Cn1c([N+](=O)[O-])cnc1/C=C1\CCc2cc(OCCN3CCCC3)ccc2C1=O		MIC bound	H37Rv	resazurin			>6.25 µg/mL
COCCN(C1CCN(CC2C(c3ccccc3)=Nc3c(C)ccc(F)c32)C1)S(C)(=O)=O		MIC					25 µM
O=[N+]([O-])c1ccc(/C=N\O)o1		MIC bound	H37Rv	resazurin			<6.25 µg/mL
CCc1c(C)sc(NC(=O)c2c(F)c(F)c(F)c(F)c2F)c1C(=O)OC(C)C		MIC					1 µM
OC[C@H](O)COCn1ncc2c(NCc3ccccc3)ncnc21		EC50	H37Rv	BACTEC			>12.5 µg/mL
CCOC(=O)C1NC(=O)C(C(=O)OCC)NC1=O		MIC bound	H37Rv	BACTEC			>12.5 µg/mL
CN(C)c1ncnc2c1cnn2COC[C@@H](O)CO	12.5 µg/mL	inhibition	H37Rv	BACTEC			0%
CC1=NN(C(=O)c2cccnc2)C(=O)C1N=Nc1ccc(S(=O)(=O)Nc2nc(C)cc(C)n2)cc1		MIC bound	H37Rv	BACTEC			>12.8 µg/mL
OC[C@H]1N[C@@H](CSc2ccc3ccccc3c2)[C@@H](O)[C@@H]1O		EC50	H37Ra	BACTEC			>12.5 µg/mL
CC1CCCN(C(=S)S)C1.CC1CCCNC1		MIC	TAC-R				1.6 µg/mL
C[C@H](NC(=O)OCc1ccccc1)c1cnc(-c2ccccc2)[nH]1		MIC	My 331/88		21 d		125 µM

An empty or dashed field is not shown. Percent inhibition refers to the dose given; in toxicity tests it is the harm to the cells. MIC bound comes from a single tested concentration. MIC50, MIC90 and the like: level of inhibition, or share of isolates inhibited. ECn: concentration that inhibits the pathogen or its effect by n%.